Results deposited as PubChem BioAssay AID624099 (ICCB-Longwood, 2012)
Shown is an unselected part of about 21,000 reagents. 497 of all reagents (2.4%) count as active. 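Higher z means weaker E2 silencing; only reporter increases were scored, and knock-downs that hurt cell survival may mask genuine repressor factors.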

Assay: 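Human genes that papillomavirus E2 requires to repress the HPV18 LCR promoter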 (primary screen)
Cell system: human C33A cervical carcinoma cells (HPV-negative) stably expressing BPV1 E2 and an HPV18 LCR luciferase reporter
Reagent: siRNA pool against human genes, 40 nM
Duration: 72 h
Detection: 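HPV18 LCR reporter light per well, converted to plate-wise z-scores that exclude control wells, and averaged over triplicate plates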
Direction: mean z-score and z-score: higher = stronger reporter signal, weaker E2 silencing
Rule for the call: 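Hit if mean z-score reaches 2 and two or more of three replicate z-scores also reach 2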

MGAT4C (GeneID 25834) scored mean z-score -0.57; z-score, replicate A = -0.32; z-score, replicate B = -0.46; z-score, replicate C = -0.92; inactive.
Depletion of TM2D3 (GeneID 80213) gave: mean z-score -0.99; z-score, replicate A = -1.04; z-score, replicate B = -1.57; z-score, replicate C = -0.36; inactive.
With knock-down of INHBE (GeneID 83729), the screen gave mean z-score 0.44; z-score, replicate A = 0.36; z-score, replicate B = 0.82; z-score, replicate C = 0.15; inactive.
After knock-down of MESTP4 (GeneID 131572) the results were mean z-score 0.43; z-score, replicate A = 0.28; z-score, replicate B = 0.32; z-score, replicate C = 0.7; inactive.
Silencing of LOC400400 (retired record) (GeneID 400400) came out at: mean z-score -1.1; z-score, replicate A = -0.94; z-score, replicate B = -1.4; z-score, replicate C = -0.95; inactive.
Silencing of ATP8B1 (GeneID 5205) gave: mean z-score 0.31; z-score, replicate A = 0.12; z-score, replicate B = 0.34; z-score, replicate C = 0.48; inactive.
Silencing of ZNF879 (GeneID 345462) resulted in: mean z-score -0.59; z-score, replicate A = -0.55; z-score, replicate B = -0.46; z-score, replicate C = -0.77; inactive.
Depletion of MAP2K2 (GeneID 5605) resulted in: mean z-score -0.27; z-score, replicate A = -0.15; z-score, replicate B = -0.23; z-score, replicate C = -0.42; inactive.
Silencing of ITGB8 (GeneID 3696) gave: mean z-score -0.28; z-score, replicate A = -0.3; z-score, replicate B = -0.22; z-score, replicate C = -0.32; inactive.
For OR8G2P (GeneID 26492), the entry reads mean z-score 0.82; z-score, replicate A = 0.71; z-score, replicate B = 0.87; z-score, replicate C = 0.88; inactive.
Against ATXN7L3 (GeneID 56970), the values are mean z-score 2.97; z-score, replicate A = 2.78; z-score, replicate B = 3.14; z-score, replicate C = 3; active.
TPSD1 (GeneID 23430) scored mean z-score -0.26; z-score, replicate A = -0.38; z-score, replicate B = -0.26; z-score, replicate C = -0.14; inactive.
For LOC285770 (retired record) (GeneID 285770), the values are mean z-score 1.63; z-score, replicate A = 1.53; z-score, replicate B = 1.76; z-score, replicate C = 1.6; inactive.
For PSMD11 (GeneID 5717), the values are mean z-score -0.49; z-score, replicate A = -0.88; z-score, replicate B = -0.17; z-score, replicate C = -0.42; inactive.

An excerpt taken from the entries so far, as a working copy:
MGAT4C (GeneID 25834) — mean z-score = -0.57; z-score, replicate A = -0.32; z-score, replicate B = -0.46; z-score, replicate C = -0.92; outcome = inactive
TM2D3 (GeneID 80213) — mean z-score = -0.99; z-score, replicate A = -1.04; z-score, replicate B = -1.57; z-score, replicate C = -0.36; outcome = inactive
INHBE (GeneID 83729) — mean z-score = 0.44; z-score, replicate A = 0.36; z-score, replicate B = 0.82; z-score, replicate C = 0.15; outcome = inactive

The list goes on.
AHSA2P (GeneID 130872) showed mean z-score 1.43; z-score, replicate A = 1.47; z-score, replicate B = 1.39; z-score, replicate C = 1.42; inactive.
Against FAM99A (GeneID 387742), the entry reads mean z-score 0.32; z-score, replicate A = 0.15; z-score, replicate B = 0.32; z-score, replicate C = 0.49; inactive.
After knock-down of ATF4 (GeneID 468), the record shows mean z-score -0.25; z-score, replicate A = -0.23; z-score, replicate B = -0.21; z-score, replicate C = -0.31; inactive.
With knock-down of EEF1A1 (GeneID 1915), the screen gave mean z-score 1.38; z-score, replicate A = 1.31; z-score, replicate B = 1.2; z-score, replicate C = 1.64; inactive.
TCL1A (GeneID 8115) scored mean z-score -0.35; z-score, replicate A = -0.14; z-score, replicate B = -0.27; z-score, replicate C = -0.63; inactive.
After knock-down of KRTAP19-7 (GeneID 337974), the record shows mean z-score 0.1; z-score, replicate A = -0.07; z-score, replicate B = 0.21; z-score, replicate C = 0.15; inactive.
After knock-down of SHQ1 (GeneID 55164), the screen gave mean z-score 0.65; z-score, replicate A = 0.34; z-score, replicate B = 0.42; z-score, replicate C = 1.21; inactive.
